A mixed list of measured activities; the numbers were collected in NIAID ChemDB.

Common to all: whole-cell or culture tests; agent: Mycobacterium tuberculosis

ECn: concentration that inhibits the pathogen or its effect by n%.

SMILES	strain	changes	dose	read by	measure	cells	value
Clc1nc(Br)nc2c1ncn2Cc1ccccc1	H37Rv			BACTEC	EC50		>12.5 µg/mL
CCOC(=O)c1ccc2c(c1)nc(-c1ccc(O)cc1)n2CCN1CCCC1=O	H37Rv			resazurin / fluorescence	EC50		>100 µM
CO[C@H]1/C=C/O[C@@]2(C)Oc3c(C)c(O)c4c(O)c(c5c(c4c3C2=O)NC2(CCN(CC(C)C)CC2)N=5)=NC(=O)/C(C)=C\C=C\[C@H](C)[C@H](O)[C@@H](C)[C@@H](O)[C@@H](C)[C@H](OC(C)=O)[C@@H]1C	4 isolates (HIS526ARG)				MIC		>5 µg/mL
O=S(=O)(N=C([S-])[S-])c1ccccc1.[K+].[K+]	H37Rv		12.5 µg/mL	BACTEC	inhibition		13%
NC(=O)/C(=C\c1ccccc1)n1nnc2ccccc21	H37Rv				EC50		>12.5 µg/mL
Nc1ccc(C(=O)OCc2ccccc2)c(O)c1	H37Rv (streptomycin-resistant)				MIC		2.5 µg/mL
CNC1C(O)CC(OC2C/C=C(/C)C/C(C)=C\C=C/CCC(C)CNC(=O)/C=C\C=C/C2C)OC1C	H37Rv			resazurin	MIC bound		>6.25 µg/mL
C=Cc1nc2c(Cl)ncnc2n1Cc1ccccc1	H37Rv			BACTEC	EC50		>12.5 µg/mL
CN(C)c1ccc(/C=N/NC(=O)C2CCCO2)c(Cl)c1	H37Rv		12.5 µg/mL	BACTEC	inhibition		0%
Cc1ccc(/C=N/N=C(\N)c2ccncc2)cc1	H37Rv				MIC		4 µg/mL
CC[C@H]1OC(=O)[C@H](C)[C@@H](O[C@H]2C[C@@](C)(OC)[C@@H](O)[C@H](C)O2)[C@H](C)[C@@H](O[C@@H]2O[C@H](C)C[C@H](N(C)C)[C@H]2O)[C@](C)(OC)C[C@@H](C)C(=O)[C@H](C)[C@@H](O)[C@]1(C)O	H37Rv				MIC		8 µg/mL
COC(=O)C1(C)C=C(Nc2ccccc2)C(=O)N1c1ccccc1	H37Rv			BACTEC	MIC bound		>12.5 µg/mL
Nc1nc(-c2ccccc2)c2ncn(Cc3ccccc3)c2n1	H37Rv			BACTEC	EC50		>12.5 µg/mL
CCOC(=O)c1ccc2nc(C3C(c4ccccc4)C(=O)C3c3ccc(OC)cc3)[nH]c2c1	H37Rv			resazurin / fluorescence	MIC		>100 µM
O=C(CCC(=O)c1ccc(Cl)cc1)NC[C@H]1CN(c2ccc(N3CCOCC3)c(F)c2)C(=O)O1	ATCC 27294				MIC		25 µg/mL
O=C1C(=O)c2c(nc3ccccn23)-c2ccccc21	H37Rv				MIC	VERO	0.39 µg/mL
Cc1cccc(C)c1Nc1nc(-c2ccccc2S)cs1	H37Rv			visual reading	MIC		>20 µM
O=C(CCC(=O)c1ccc(Cl)cc1)NC[C@H]1CN(c2ccc(-n3cncn3)c(F)c2)C(=O)O1	10 clinical isolates resistant				MIC		4–16 µg/mL
Oc1[nH]c2ccc(OC(F)(F)F)cc2c1N=NC(=S)NCc1ccccc1	H37Rv			broth dilution / resazurin	EC90		>100 µg/mL
CC(C)(C)c1ccc(C(=O)Nc2nc(-c3ccccn3)cs2)cc1	H37Rv			visual reading	MIC99		0.25 µM
Oc1[nH]c2ccc(OC(F)(F)F)cc2c1N=NC(=S)Nc1ccccc1	H37Rv			broth dilution / resazurin	EC50		14.2 µg/mL
CCOC(=O)c1ccc2nc(-c3ccc(OC(F)(F)F)cc3)[nH]c2c1	H37Rv			resazurin / fluorescence	MIC		>100 µM
CCCNC(=O)c1cc(C2C3CC4CC(C3)CC2C4)c2ccccc2n1	H37Ra			BACTEC	MIC		>6.25 µg/mL
CC[C@@H](CO)NCCN[C@@H](CC)CO	H37Rv			resazurin / fluorescence	EC90		>200 µM
CC(=O)OCC(=O)Nc1nc(-c2ccccn2)cs1	H37Rv			visual reading	MIC		>20 µM
CCOC(=O)c1cc(=O)[nH]c(N)n1	H37Rv			BACTEC	MIC bound		>12.5 µg/mL
CCc1cc(C(N)=S)ccn1	H37Rv				MIC		0.25 µg/mL
CCn1cc(C(=O)O)c(=O)c2cc(F)c(N3CCN(C)CC3)cc21	9 isolates (RMP INH-S)				MIC90		16 µg/mL
NNC(=O)c1ccncc1	CHUV80045776	katG mutant isoniazid resistant		resazurin / absorbance	MIC		2.5 µg/mL
O=C(Nc1nc(-c2ccccn2)cs1)NC1CCCC1	H37Rv			visual reading	MIC		1.6 µM
N/C(=N\N=C\c1ccc(Cl)cc1)c1ccncc1	Isolate 1751 ofloxacin-resistant				MIC		8 µg/mL
Cc1ccc(C(=O)Nn2c(C)nc3scc(-c4ccco4)c3c2=O)cc1	CNCTC MY331/88				MIC		41 µM
Cc1ccc(NC(=S)N=Nc2c(O)n(C)c3ccc(OC(F)(F)F)cc23)cc1	H37Rv			broth dilution / resazurin	EC90		>100 µg/mL
C/C(=N/NC(=S)N1CCC(c2ccccc2)CC1)c1nccnc1C	PZA-R				MIC		3.1 µg/mL
N/C(=N\N=C\c1ccccc1Br)c1ccncc1	Isolate 1751 ofloxacin-resistant				MIC		8 µg/mL
NNC(=O)Cc1cc(C2C3CC4CC(C3)CC2C4)nc2ccccc12	H37Ra		6.25 µg/mL	BACTEC	inhibition		31%
CC(=O)OC[C@H]1O[C@@H](n2c(C)c(N=Nc3ccccc3)c(C)c(C#N)c2=S)[C@H](OC(C)=O)[C@@H](OC(C)=O)[C@H]1OC(C)=O	H37Rv		6.25 µg/mL	resazurin	inhibition		-30%
CCc1nc2ccc(Cl)cn2c1C(=O)NCc1ccc(N2CCC(c3ccc(OC(F)(F)F)cc3)CC2)cc1	H37Rv			resazurin	MIC50		0.00145 µM
Cc1ccc(-n2nnc3c(NNc4ccccc4)n[nH]c(=O)c32)cc1	H37Rv			resazurin	MIC bound		>6.25 µg/mL
CCOC(=O)c1ccc2c(c1)nc(-c1ccc(Br)cc1)n2CCN1CCCC1=O	H37Rv			resazurin / fluorescence	MIC		>100 µM
Cc1nc2scc(-c3ccco3)c2c(=O)n1N	CNCTC MY331/88				MIC		500 µM
COc1ccc(NC(=O)c2cc(C3C4CC5CC(C4)CC3C5)c3ccccc3n2)cc1Cl	H37Ra		6.25 µg/mL	BACTEC	inhibition		35%
c1ccc(Nc2nc(-c3ccc4ccccc4n3)cs2)nc1	H37Rv			visual reading	MIC		1.5 µM
C=CC1CN2CCC1CC2C(O)c1ccnc2ccc(OC)cc12.CC(O)C(O)C(O)C(O)C(=O)O	H37Rv		6.25 µg/mL	resazurin	inhibition		-9%
Cn1c(O)c(N=NC(=S)Nc2ccc(F)cc2)c2cc(OC(F)(F)F)ccc21	H37Rv			broth dilution / resazurin	EC50		0.865 µg/mL
O=C(O)C1Cc2c([nH]c3ccccc23)C(C(=O)O)N1	H37Rv			resazurin	MIC bound		>6.25 µg/mL
CC(=O)Nc1ccc(C(=O)CCC(=O)NC[C@H]2CN(c3ccc(N4CCCCC4)c(F)c3)C(=O)O2)cc1	10 clinical isolates resistant				MIC		>16 µg/mL
O=C(Nc1ccc2[nH]c(C(=O)N3CC(CCl)c4c3cc([N+](=O)[O-])c3ccccc43)cc2c1)c1cc2ccccc2o1	H37Rv			BACTEC	MIC bound		>6.25 µg/mL
C=C(OCC)c1ncnc2c1ncn2Cc1ccccc1	H37Rv			BACTEC	EC50		<12.5 µg/mL
Nc1ccc2[se]nc3c2c1C(=O)c1ccccc1-3	H37Rv			BACTEC	MIC bound		≤12.5 µg/mL
N#C/C(=C\c1ccc2c(c1)OCO2)n1nnc2ccccc21	H37Rv		12.5 µg/mL		inhibition		41%
CCC(C)c1cc(C)cc(OC(=O)c2ccc(N)cc2O)c1	H37Rv				MIC		2.5 µg/mL
Clc1nc(-c2ccccc2)nc2c1ncn2Cc1ccccc1	H37Rv			BACTEC	EC50		<12.5 µg/mL
CCOC(=O)c1ccc2nc(-c3ccc(N4CCOCC4)cc3)[nH]c2c1	H37Rv			resazurin / fluorescence	EC50		>100 µM
Cc1nc2scc(-c3ccco3)c2c(=O)n1NC(=O)c1ccc(F)cc1F	CNCTC MY331/88				MIC		15 µM
N[C@@H]1CONC1=O	90-0240 (drug-susceptible)				MIC		75 µg/mL
O=[N+]([O-])c1ccc2nc[nH]c2c1	H37Rv			resazurin	MIC bound		>6.25 µg/mL
CNC(=S)N=Nc1c(O)n(C)c2ccc(OC(F)(F)F)cc12	H37Rv			broth dilution / resazurin	EC90		>100 µg/mL
NC(=O)c1cc(C2C3CC4CC(C3)CC2C4)c2ccccc2n1	H37Ra			BACTEC	MIC		6.25 µg/mL
CSc1ccc(C(=O)CCC(=O)NC[C@H]2CN(c3ccc(N4CCCC4)c(F)c3)C(=O)O2)cc1	ATCC 27294				MIC		>16 µg/mL
N/C(=N\N=C\c1ccc(Br)cc1)c1ccncc1	H37Rv				MIC		8 µg/mL
NCC[C@H](O)C(=O)N[C@@H]1C[C@H](N)[C@@H](O[C@H]2O[C@H](CN)[C@@H](O)[C@H](O)[C@H]2O)[C@H](O)[C@H]1O[C@H]1O[C@H](CO)[C@@H](O)[C@H](N)[C@H]1O	90-0240 (drug-susceptible)				MIC		0.5 µg/mL
N#C/C(=C\c1ccc2c(c1)OCO2)n1nc2ccccc2n1	H37Rv		12.5 µg/mL		inhibition		0%
CCNC(=S)N=Nc1c(O)n(C)c2ccc(OC(F)(F)F)cc12	H37Rv			broth dilution / resazurin	EC90		>100 µg/mL
O=C(O)/C(=C\c1ccccc1)n1nnc2ccccc21	H37Rv		12.5 µg/mL		inhibition		0%
Cc1nc2scc(-c3ccco3)c2c(=O)n1NC(=O)c1ccc([N+](=O)[O-])cc1	CNCTC MY331/88				MIC		6 µM
CCOC(=O)c1ccc2c(c1)nc(-c1cccc(-c3ccc(F)cc3)c1)n2CCN1CCCC1=O	H37Rv			resazurin / fluorescence	EC50		61.45 µM
Cc1cccc(C)c1Nc1nc(-c2ccn[nH]2)cs1	H37Rv			visual reading	MIC		>20 µM
Cc1cc(COC(=O)c2ccc(N)cc2O)ccc1C(C)C	H37Rv				MIC		0.01 µg/mL
CCOC(=O)c1ccc2c(c1)nc(-c1ccc(O)cc1)n2CCN1CCCOC1	H37Rv			resazurin / fluorescence	EC50		>100 µM
NNC(=O)c1cc(C2C3CC4CC(C3)CC2C4)nc2ccccc12	H37Ra		6.25 µg/mL	BACTEC	inhibition		17%
COc1cc(/C=C/C(=O)NCC(=O)NN)cc(OC)c1OC	H37Rv		12.5 µg/mL	BACTEC	inhibition		1%
CC[C@@H](CO)NCCN[C@@H](CC)CO	90-0201 (drug-susceptible)				MIC		1 µg/mL
Oc1c(N=NC(=S)Nc2ccc(F)cc2)c2cc(OC(F)(F)F)ccc2n1CN1CCOCC1	H37Rv			broth dilution / resazurin	EC90		3.057 µg/mL
Clc1nc(C#Cc2ccccc2)nc2c1ncn2Cc1ccccc1	H37Rv			BACTEC	EC50		>12.5 µg/mL
CC1=C(C)C(=O)C(CC2=C(C)C(=O)C(C)=C(C)C2=O)=C(C)C1=O	H37Rv			BACTEC	MIC		4 µg/mL
Cc1ccc(/C=C(\C(N)=O)n2nc3ccccc3n2)cc1	H37Rv				EC50		>12.5 µg/mL
N#Cc1ncc(C[P+](c2ccccc2)(c2ccccc2)c2ccccc2)nc1N.[Cl-]	H37Rv		12.5 µg/mL	BACTEC	inhibition		5%
CC(=O)Nc1ccc(/C=N/NC(N)=S)cc1F	H37Rv			resazurin	MIC90		<0.1 µg/mL
CC1(C)CNC(=O)C(C)(C2(C)NC(C)(C)CNC2=O)N1	H37Rv			BACTEC	MIC		≥12.5 µg/mL
NNC(=O)c1ccnc2ccccc12	H37Ra		6.25 µg/mL	BACTEC	inhibition		0%
CCOCC1COc2c(cc3[nH]cc(C(=O)OCC)c(=O)c3c2Cl)O1	H37Rv			BACTEC	MIC bound		>12.5 µg/mL
Cc1cccc(C)c1Nc1nc(-c2ccncn2)cs1	H37Rv			visual reading	MIC		20 µM
Oc1c(Cl)c(N=Nc2nc3ccccc3s2)c(O)c2ccccc12	H37Rv			BACTEC	MIC		1.6 µg/mL
CC1COc2c(N3CCN(C)CC3)c(F)cc3c(=O)c(C(=O)O)cn1c23	H37Rv				MIC		0.75 µg/mL

The last 8 rows once more:

SMILES	strain	changes	dose	read by	measure	cells	value
N#Cc1ncc(C[P+](c2ccccc2)(c2ccccc2)c2ccccc2)nc1N.[Cl-]	H37Rv		12.5 µg/mL	BACTEC	inhibition		5%
CC(=O)Nc1ccc(/C=N/NC(N)=S)cc1F	H37Rv			resazurin	MIC90		<0.1 µg/mL
CC1(C)CNC(=O)C(C)(C2(C)NC(C)(C)CNC2=O)N1	H37Rv			BACTEC	MIC		≥12.5 µg/mL
NNC(=O)c1ccnc2ccccc12	H37Ra		6.25 µg/mL	BACTEC	inhibition		0%
CCOCC1COc2c(cc3[nH]cc(C(=O)OCC)c(=O)c3c2Cl)O1	H37Rv			BACTEC	MIC bound		>12.5 µg/mL
Cc1cccc(C)c1Nc1nc(-c2ccncn2)cs1	H37Rv			visual reading	MIC		20 µM
Oc1c(Cl)c(N=Nc2nc3ccccc3s2)c(O)c2ccccc12	H37Rv			BACTEC	MIC		1.6 µg/mL
CC1COc2c(N3CCN(C)CC3)c(F)cc3c(=O)c(C(=O)O)cn1c23	H37Rv				MIC		0.75 µg/mL

Lines come from different laboratories, so protocols vary. An empty or dashed field is not shown. Two numbers with a dash give a range or band. MIC50, MIC90 and the like: level of inhibition, or share of isolates inhibited. MIC bound: limit read from a one-dose screen. Percent inhibition refers to the dose given; in toxicity tests it is the harm to the cells.